Reference: ChEMBL document CHEMBL4813984, “An original pronucleotide strategy for the simultaneous delivery of two bioactive drugs” (Eur J Med Chem, 2021)

Assays:
[1] = system: Human immunodeficiency virus 1; assay: Antiviral activity against HIV-1 infected in human CEM-SS cells assessed as reduction in viral multiplication by measuring decrease in reverse transcriptase activity incubated for 5 days
[2] = system: CEM-SS; assay: Cytotoxicity against human CEM-SS cells assessed as reduction in cell viability incubated for 5 days by MTT assay; type: cell-based; details: 120 h
[3] = Selectivity index, ratio of CC50 for human CEM-SS cells to EC50 for antiviral activity against HIV-1 infected in human CEM-SS cells
[4] = system: Human immunodeficiency virus 1; assay: Antiviral activity against HIV-1 infected in human MT4 cells assessed as reduction in virus-indued cytopathogenicity incubated for 5 days by MTT assay
[5] = system: MT4; assay: Cytotoxicity against human MT4 cells assessed as reduction in cell viability incubated for 5 days by MTT assay; type: cell-based; details: mt4, 120 h
[6] = Selectivity index, ratio of CC50 for human MT4 cells to EC50 for antiviral activity against HIV-1 infected in human MT4 cells
[7] = system: CEM-TK(-); assay: Cytotoxicity against human CEM-TK(-) cells assessed as reduction in cell viability incubated for 5 days by MTT assay; type: cell-based; details: 120 h

CC(C)(C)C(=O)SCCOP(=O)(Nc1ccn([C@H]2CC[C@@H](CO)O2)c(=O)n1)OC[C@@H]1CC[C@H](n2cnc3c(N)ncnc32)O1 (stereo partly drawn)
EC50 [1]: 40 nM | CC50 [2]: > 160 µM | Ratio CC50/EC50 [3]: > 4000 | EC50 [4]: 790 nM | CC50 [5]: > 160 µM | Ratio CC50/EC50 [6]: > 203

Cc1cn([C@H]2C[C@H](N=[N+]=[N-])[C@@H](COP(=O)(Nc3ccn([C@H]4CC[C@@H](CO)O4)c(=O)n3)OCCSC(=O)C(C)(C)C)O2)c(=O)[nH]c1=O (stereo partly drawn)
EC50 [1]: 0.6 nM | CC50 [2]: 350 µM | Ratio CC50/EC50 [3]: > 580000 | EC50 [4]: 6.5 nM | CC50 [5]: > 500 µM | Ratio CC50/EC50 [6]: > 76900 | CC50 [7]: > 500 µM
